A mixed list of measured activities; the numbers were collected in NIAID ChemDB.

Neighbouring rows are from separate reports. Fold resistance has wild type as its base. Blank or dashed fields: not listed here. MIC50, MIC90 and the like: level of inhibition, or share of isolates inhibited. ECn is the concentration giving n% inhibition of infection, replication or growth. ICn: concentration for n% inhibition. Inhibition is in % at the dose shown (toxicity tests: loss of growth or viability).

SMILES,test,agent,strain,changes,cell line,protein,method,measure,tested at,value
CC1(C)C2CC[C@@H](CNc3nnc(NC(=O)c4ccc5c(c4)C(=O)OC5=O)s3)C1C2,target,Human cytomegalovirus,,,,Polymerase,,IC50,,<25 µM
CCOC(=O)Nc1cc2c(c(N)n1)N=C(c1cccc(OC)c1)CS2,culture,Encephalitozoon intestinalis,,,RK-13,,,inhibition,1 µg/mL,23.9%
Nc1ccnc2c1ncn2[C@H]1C=C[C@@H](OCP(=O)(O)O)O1,culture,Adenovirus,Chicago (type 1),,,,virus yield,EC90,,14 µg/mL
CO[C@H]1[C@@H](OC(=O)/C=C/C=C/C=C/C=C/C(=O)O)CC[C@@]2(CO2)[C@@H]1[C@@]1(C)O[C@@H]1CC=C(C)C,culture,Encephalitozoon intestinalis,,,RK-13,,,inhibition,0.01 µg/mL,85.9%
O=C(Nc1nnc(NCCNc2ccccc2)s1)c1ccc(Cl)c(Cl)c1,target,Human cytomegalovirus,,,,Polymerase,,IC50,,>25 µM
CC(C)=CCN1Cc2cc(Cl)cc3[nH]c(=S)n(c23)C[C@@H]1C,culture,HIV-1,,RT-L74V K103N,MT-4,,,EC95,,>3 µM
C#CC[C@@H](C(=O)N[C@H](/C=C/C(=O)OCC)C[C@@H]1CCNC1=O)n1cccc(NC(=O)c2cc(C)on2)c1=O,culture,Rhinovirus,Clinical isolate T (serotype 16),,H1-HELA,,cytopathic effect / XTT,EC50,,0.079 µM
O=C1Nc2ccc(Cl)cc2[C@@](C#CC2CC2)(C(F)(F)F)O1,host protein,Human,,,,DNA polymerase gamma,,IC50,,116.3 µM
CC(C)C(=O)N1C[C@H](CN2CCC(c3ccccc3)CC2)[C@@H](c2ccccc2)C1,target,,,CCR5-Y37A,,CCR5,radiometric,fold resistance,,1.5
CC1(C)[C@@H](O[C@H]2O[C@H](C(=O)O)[C@@H](O)[C@H](O)[C@H]2O[C@@H]2O[C@H](C(=O)O)[C@@H](O)[C@H](O)[C@H]2O)CC[C@]2(C)[C@H]3C(=O)C=C4[C@@H]5C[C@@](C)(C(=O)O)CC[C@]5(C)CC[C@@]4(C)[C@]3(C)CC[C@@H]12,culture,Dengue virus,TYPE 2 (NGC),,VERO,,virus yield,EC90,,317 µg/mL
O=C(c1ccccc1Cl)N1C[C@H](CN2CCC(O)(CCCc3ccc(-c4nn[nH]n4)cc3)CC2)[C@@H](c2ccccc2)C1,target,,,,,CCR5,radiometric,IC50,,0.011 µM
CCSCCNc1nnc(NC(=O)/C=C/c2ccccc2)s1,target,Human cytomegalovirus,,,,Polymerase,,IC50,,>25 µM
Nc1nc2c(ncn2[C@H]2CC[C@@H](COP(=O)(O)OP(=O)(O)OP(=O)(O)O)O2)c(=O)[nH]1,target,HIV,,RT-N137E,,Reverse transcriptase,nucleotide incorporation / radiometric,fold resistance,,1.66
CCO/N=C/c1ccc(OCCC2CCN(c3ccc(C)nn3)CC2)cc1,culture,Rhinovirus,K2207 (ICAM-1 receptor group 72),,KB,,neutral red,EC50,,0.109 µM
CC[C@H]1C(=O)Nc2ccc(F)cc2N1C(=O)OC(C)C,target,HIV,,RT-N137K,,Reverse transcriptase,nucleotide incorporation / radiometric,fold resistance,,1.8
CCOC(=O)Nc1cc(NC(C)/C(=N/O)c2ccccc2)c([N+](=O)[O-])c(N)n1,culture,Encephalitozoon intestinalis,,,RK-13,,,inhibition,0.1 µg/mL,0%
Cc1cn([C@@H]2O[C@H](CO[Si](C)(C)C(C)(C)C)C3(OS(=O)(=O)C=C3N)[C@H]2O[Si](C)(C)C(C)(C)C)c(=O)n(C)c1=O,target,HIV,,RT-N137K,,Reverse transcriptase,nucleotide incorporation / radiometric,fold resistance,,2.1
O=C(Nc1nnc(NCCN2CCOCC2)s1)c1cc2ccccc2s1,target,Human cytomegalovirus,,,,Polymerase,,IC50,,>25 µM
O=C(C1CCCCC1)N1C[C@H](CN2CCC(c3ccccc3)CC2)[C@@H](c2ccccc2)C1,target,,,CCR5-W86A,,CCR5,radiometric,fold resistance,,>43.48
COc1cc(C[C@H](C)[C@H](C)Cc2ccc(O)c(O)c2)ccc1O,culture,Candida albicans,CCC 126-2000,,,,broth dilution,MIC100,,62.5 µg/mL
O=C(Nc1nnc(NCC(c2ccccc2)c2ccccc2)s1)c1ccc(S(=O)(=O)F)cc1,target,Human cytomegalovirus,,,,Polymerase,,IC50,,<25 µM
CCC[C@H](NC(=O)[C@@H]1[C@H]2CCC[C@H]2CN1C(=O)[C@@H](NC(=O)[C@@H](NC(=O)c1cnccn1)C1CCCCC1)C(C)(C)C)C(=O)C(=O)NC1CC1,host protein,,,,,Thrombin,substrate cleavage,IC90,,<1 µM
O=C(Nc1nnc(NC2CCN(Cc3ccccc3)CC2)s1)c1ccc([N+](=O)[O-])o1,target,Human cytomegalovirus,,,,Polymerase,,IC50,,>25 µM
Nc1nc2c(ncn2CCOCP(=O)(O)O)c(=O)[nH]1,culture,Parainfluenza virus,C243 (TYPE 3),,,,virus yield,EC90,,17 µg/mL
CCOC(=O)Nc1cc2c(c(N)n1)N=C(c1ccc(N=[N+]=[N-])cc1)CO2,culture,Encephalitozoon intestinalis,,,RK-13,,,inhibition,0.01 µg/mL,45.1%
O=C(Nc1nnc(NCc2ccncc2)s1)c1c(Cl)cccc1Cl,target,Human cytomegalovirus,,,,Polymerase,,IC50,,<25 µM

Repeating the final 2 entries:

{"SMILES": "CCOC(=O)Nc1cc2c(c(N)n1)N=C(c1ccc(N=[N+]=[N-])cc1)CO2", "test": "culture", "agent": "Encephalitozoon intestinalis", "cell line": "RK-13", "measure": "inhibition", "tested at": "0.01 µg/mL", "value": "45.1%"}
{"SMILES": "O=C(Nc1nnc(NCc2ccncc2)s1)c1c(Cl)cccc1Cl", "test": "target", "agent": "Human cytomegalovirus", "protein": "Polymerase", "measure": "IC50", "value": "<25 µM"}